Here are results for 13 molecules from publication PMC6116672, “Discovery of (phenylureido)piperidinyl benzamides as prospective inhibitors of bacterial autolysin E from Staphylococcus aureus” (Journal of Enzyme Inhibition and Medicinal Chemistry, 2018).

Chains of the proteins cited; added tags and fusions are not shown. Residues count along the entry.
UniProt A0A0H3JT72, 35-258 limits assumed: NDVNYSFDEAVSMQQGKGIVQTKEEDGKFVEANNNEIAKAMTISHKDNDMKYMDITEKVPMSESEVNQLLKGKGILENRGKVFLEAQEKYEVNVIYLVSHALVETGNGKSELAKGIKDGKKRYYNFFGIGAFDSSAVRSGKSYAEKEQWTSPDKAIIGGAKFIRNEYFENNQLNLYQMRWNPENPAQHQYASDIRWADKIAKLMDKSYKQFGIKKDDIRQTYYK

Usually Kd stands for the constant that tells how readily two partners part at equilibrium. Read a low Kd as tighter binding.

In experiment [1] the target is T1, AtlE (Staphylococcus aureus, UniProt A0A0H3JT72). The experiment is described as follows: SPR binding affinity to AtlE (steady state 1:1 model). The conditions noted are these: for Kd: SPR, immobilised AtlE, 25 °C, PBS pH 7.4 with 1% or 5% DMSO. On the procedure: SPR experiments were performed using a Biacore T100 (GE Healthcare) equipped with a Series S sensor chip CM5 (GE Healthcare). PBS buffer (67 mM Na2HPO4, 12.5 mM KH2PO4, 70 mM NaCl, 0,05% P20, pH 7.4) was used for immobilisation of the protein. AtlE was produced as previously described[1] and attached to the surface of the chip by amine coupling. The surface of flow cells 1 and 2 was initially activated with a 10-min pulse of a 1:1 mixture of 0.4 M 1-ethyl-3–(3-dimethylaminopropyl)-carbodiimide hydrochloride and 0.1 M N-hydroxysuccinimide, according to manufacturer recommendations. AtlE was diluted into 10 mM sodium acetate buffer, pH 5.8, to a final concentration of 100 µg/mL, and injected twice for 180 s over the second flow cell. Both flow cells were blocked with a 7-min pulse of 1.0 M ethanolamine. The final immobilisation level was about 4100 RU. Screening was run at 25 °C using PBS (67 mM Na2HPO4, 12.5 mM KH2PO4 pH 7.4, 70 mM NaCl, 0.05% P20) supplemented with 1% or 5% DMSO (Merck) as the running buffer. Selected compounds from the virtual screening studies were tested at two different concentrations: 40 and 400 µM. Each compound was injected for 1 min at a flow-rate of 30 µL/min, and the dissociation was monitored for 30 s. Regeneration was not needed, although 30 s of buffer-flow was used to stabilise the surface after each injection. […] Selected compounds were tested at eight different concentrations (depending on their solubility) in three parallel titrations. KD values were determined by fitting of the data to a 1:1 steady state binding model.
(In general: In SPR one partner is held on a chip, and binding of the other changes the refractive index at the surface.)

The target of experiment [2] is T1, AtlE. The experiment can be described thus: STD NMR binding measurements. The conditions noted are these: protein/ligand 1:100, protein 1 µM, ligand 0.1 mM, saturation time 2 s, qualitative. The method, then: The high-resolution NMR spectra were recorded on a Varian DirectDrive 800 MHz spectrometer at 25 °C. All data were collected using pulse sequences and phase-cycling routines provided in Varian libraries of pulse programs. The cryogenic triple-resonance NMR probe was used. NMR samples were prepared in a buffer containing 20 mM Tris-D11, 10% glycerol-D8, and 100 mM NaCl in D2O, pD 7.2. DSS (0.1 mM) was used as an internal standard. All the spectra were recorded at a protein/ligand ratio of 1:100, the protein concentration was 1 µM and the ligand concentration was 0.1 mM. The STD experiments[23] were performed with a 8802.8 Hz spectral width, 16384 data points, a saturation time of 2 s, a relaxation delay of 1.3 s, and 3800 scans. Selective saturation was achieved by a train of 50 ms long Gauss-shaped pulses separated by 1 ms delay. Water was suppressed via excitation sculpting. The on-resonance selective saturation of AtlE was applied at –0.9 ppm, which is well separated from the methyl group of compounds at 1.1 ppm. The off-resonance irradiation was applied at 30 ppm for the reference spectrum. Subtraction of the on and off-resonance spectra was performed internally via phase cycling. Spectra were zero-filled twice and apodised by an exponential line-broadening function of 1 Hz.
Additionally, we tested the binding nature of selected binders with STD NMR spectroscopy. […]

Structures are written as SMILES.

With `Cc1ccc(NC(=O)NC2CCN(c3ccccc3C(=O)NCc3ccc(F)cc3)CC2)cc1`, the Kd at AtlE [1] was determined as 6.1 µM. For the same molecule, the “STD NMR binding to AtlE (STD signals in the aromatic region)” value at AtlE [2] is recorded as “bind to AtlE”. With `CCN(Cc1ccccc1)C(=O)c1ccccc1N1CCC(NC(=O)Nc2ccc(C)cc2)CC1`, at AtlE [1], the Kd worked out at 38.8 µM. The molecule `CC(C)NC(=O)c1ccccc1N1CCC(NC(=O)Nc2ccccc2)CC1` had a dissociation constant (Kd) at AtlE [1] above 1000 µM. In the case of `Cc1ccc(NC(=O)NC2CCN(c3ccccc3C(=O)NCc3ccccc3)CC2)cc1`, the Kd at AtlE [1] stood at 11.3 µM. Also, the “STD NMR binding to AtlE (STD signals in the aromatic region)” value on AtlE [2] is “bind to AtlE”. Molecule `COc1ccc(CCNC(=O)c2ccccc2N2CCC(NC(=O)Nc3ccc(C)cc3)CC2)cc1` returned a Kd at AtlE [1] above 1000 µM. The same measure, in the same setting: with `Cc1ccc(NC(=O)NC2CCN(c3ccccc3C(=O)N(C)C3CCN(C)CC3)CC2)cc1` the figure was above 1000 µM; with `CCCNC(=O)c1ccccc1N1CCC(NC(=O)Nc2ccc(C)cc2)CC1`, above 1000 µM; with `CC1CCN(C(=O)c2ccccc2N2CCC(NC(=O)Nc3ccccc3)CC2)CC1`, above 1000 µM. On the same count and under the same terms, the same measure for `Cc1ccc(NC(=O)NC2CCN(c3ccccc3C(=O)NC3CCCc4ccccc43)CC2)cc1` (stereo not shown): 11.7 µM; for `CCN1CCN(C(=O)c2ccccc2N2CCC(NC(=O)Nc3ccc(C)cc3)CC2)CC1`: above 1000 µM.

On to `Cc1ccc(NC(=O)NC2CCN(c3ccccc3C(=O)N3CCc4ccccc4C3)CC2)cc1`, for which, on AtlE [1], the Kd was 18.2 µM. Besides, the “times lower affinity than 10” value on AtlE [1] (ratio of SPR Kd relative to compound 10) amounted to 10. On to `O=C(Nc1ccccc1)NC1CCN(c2ccccc2C(=O)NCCc2ccccc2)CC1`, for which the Kd at AtlE [1] was determined as 21.1 µM. Still for that read-out and setting: with `CCN(CC)C(=O)c1ccccc1N1CCC(NC(=O)Nc2ccccc2)CC1` the figure was above 1000 µM.
